Compound potency records, mixed from different reports. Data source: NIAID ChemDB in PubChem.

Shared fields: tests in culture; species: HIV-1; cells: TZM-bl; measure: EC50

An empty or dashed field is not shown. ECn: concentration that inhibits the pathogen or its effect by n%. Neighbouring rows are from separate reports.

{"structure": "O=C1CCCN1CCCN1CC(=O)N2CC(N(CCOc3ccccc3)S(=O)(=O)c3cccc(F)c3)C[C@H]2C1=O", "strain": "PLAI-JRFL PID2-18B", "method": "luciferase", "value": "19.8 µM"}
{"structure": "CCOC(=O)C(O)(c1c[nH]c2ccc(C(=O)OC)cc12)C(F)(F)F", "strain": "IIIB", "value": "22.4 µM"}
{"structure": "Cc1cc(/C=C/C#N)cc(C)c1Nc1ccnc(Nc2ccc(C#N)cc2)n1", "strain": "LAI", "mutations": "E138R", "value": "1.6 µM"}
{"structure": "N#Cc1cn(C[C@H](CF)OCP(=O)(O)O)c2nc(N)[nH]c(=O)c12", "strain": "NL4-3", "method": "luciferase", "value": ">100 µM"}
{"structure": "Cc1cn([C@H]2C[C@H](N=[N+]=[N-])[C@@H](CO)O2)c(=O)[nH]c1=O", "strain": "VB51", "method": "luciferase", "value": "0.03 µM"}
{"structure": "N#Cc1cn(C[C@@H](CF)OCP(=O)(O)O)c2nc(N)[nH]c(=O)c12", "strain": "NL4-3", "method": "luciferase", "value": ">100 µM"}
{"structure": "Cc1nnc(C(C)C)n1C1C[C@H]2CC[C@@H](C1)N2CC[C@H](NC(=O)C1CCC(F)(F)CC1)c1ccccc1", "strain": "BaL", "method": "luminescence", "value": "4.2 µM"}
{"structure": "CC(C)=CCOc1cc(NC(=S)c2ccoc2C)ccc1Cl", "strain": "NL4-3", "mutations": "(36G)V38A N42T", "method": "luminescence", "value": ">2000 µM"}
{"structure": "Cc1ccc(C)c2c1[nH]c1cc(Cl)ccc12", "strain": "BaL", "method": "luminescence", "value": "3.8 µM"}
{"structure": "CC(C)OC(=O)[C@H](C)N[P@](=O)(CO[C@H](C)Cn1cnc2c(N)ncnc21)Oc1ccccc1", "strain": "BaL", "method": "luciferase", "value": "0.0033 µM"}
{"structure": "Nc1nc(=O)n([C@@H]2CS[C@H](CO)O2)cc1F", "strain": "LAI", "mutations": "E138Q", "value": "0.4 µM"}
{"structure": "Nc1nc2c(c(F)cn2C[C@H](CF)OCP(=O)(O)O)c(=O)[nH]1", "strain": "BaL", "method": "luciferase", "value": ">100 µM"}
{"structure": "C[C@H]1CCCC[C@@H]1Oc1cc(CCc2ccccc2)[nH]c(=O)c1I", "strain": "SF33", "method": "ELISA", "value": "0.003 µM"}
{"structure": "Cc1cn([C@H]2C[C@H](N=[N+]=[N-])[C@@H](CO)O2)c(=O)[nH]c1=O", "strain": "CNE8", "method": "p24 / ELISA", "value": "0.03073 µM"}
{"structure": "CCOC(=O)C(O)(c1c[nH]c2ccc(Cl)cc12)C(F)(F)F", "strain": "IIIB", "value": "0.249 µM"}
{"structure": "COc1ccc(Sc2nc(N)nc3c2ncn3C[C@@H](CF)OP(=O)(O)O)cc1", "strain": "NL4-3", "method": "luciferase", "value": ">100 µM"}
{"structure": "COC(=O)c1cccc2[nH]cc(C(O)(C(=O)OC)C(F)(F)F)c12", "strain": "IIIB", "value": ">96.2 µM"}
{"structure": "CCCCCOC(=O)C[C@H](NP(=O)(CO[C@H](CF)COc1nccc(N)n1)Oc1ccccc1)C(=O)OCCCCC", "strain": "NL4-3", "method": "luminescence", "value": ">43.21 µM"}
{"structure": "CCOC(=O)C(O)(c1c[nH]c2ccc([N+](=O)[O-])cc12)C(F)(F)F", "strain": "IIIB", "value": "0.045 µM"}
{"structure": "CCCCCOC(=O)C[C@H](NP(=O)(CO[C@@H](CF)Cn1ccc2c(=O)[nH]c(N)nc21)N[C@@H](CC(=O)OCCCCC)C(=O)OCCCCC)C(=O)OCCCCC", "strain": "BaL", "method": "luminescence", "value": "2.62 µM"}
{"structure": "Nc1nc2c(ccn2C[C@H](CF)OCP(=O)(O)O)c(=O)[nH]1", "strain": "NL4-3", "method": "luciferase", "value": ">100 µM"}

A second listing of 2 rows from above:

structure	strain	mutations	method	value
CCCCCOC(=O)C[C@H](NP(=O)(CO[C@H](CF)COc1nccc(N)n1)Oc1ccccc1)C(=O)OCCCCC	NL4-3	-	luminescence	>43.21 µM
Nc1nc2c(c(F)cn2C[C@H](CF)OCP(=O)(O)O)c(=O)[nH]1	BaL	-	luciferase	>100 µM